Anti-infective test results gathered from many reports (values: NIAID ChemDB through PubChem).

All rows: enzyme or target tests; agent: HIV-1; protein: Reverse transcriptase

Lines come from different laboratories, so protocols vary. An empty or dashed field is not shown. ICn is the concentration giving n% inhibition. Two numbers with a dash give a range or band.

SMILES | changes | strain | method | measure | value
CCN1c2ncc(CCOc3ccc(C(=O)O)c4c3CCN(C(C)=O)C4)cc2C(=O)N(C)c2cccnc21 | RT-K103N Y181C |  | nucleotide incorporation / radiometric | IC50 | 0.1–1 µM
CCN1c2ncc(CCOc3ccc(-c4ccc(CC(=O)O)c(C)c4)cc3C)cc2C(=O)N(C)c2cccnc21 | RT-K103N Y181C | IIIB | nucleotide incorporation / radiometric | IC50 | <0.05 µM
COC(=O)C(C)(C)C#Cc1ccc(NC(=O)CSc2nnnn2-c2cc(C(F)(F)F)ccc2Cl)c(Cl)c1 | RT-K103 Y181C |  | PicoGreen / fluorescence | IC50 | <1 µM
O=[N+]([O-])c1ccc2c(c1)CN(c1nn3c(C4CC4)nnc3c3ccccc13)CC2 |  | KER2008 | RT activity / fluorescence | IC90 | 14.5 µM
CCN1c2ncc(CCOc3ccc(C(=O)Nc4nc(CC(=O)O)cs4)cc3C)cc2C(=O)N(C)c2cccnc21 | RT-K103N Y181C | IIIB | nucleotide incorporation / radiometric | IC50 | <0.05 µM
COc1cc2c(cc1OC)CN(c1nn3c(C(F)F)nnc3c3ccccc13)CC2 |  | 98US_MSC5016 | RT activity / fluorescence | IC90 | 2.54 µM
CCNC(=O)N1CCc2c(OCCc3cnc4c(c3)C(=O)N(C)c3cccnc3N4CC)ccc(C(=O)O)c2C1 | RT-V106A |  | nucleotide incorporation / radiometric | IC50 | 0.1–1 µM
Oc1cc2c(cc1O)CN(c1nn3c(C4CC4)nnc3c3ccccc13)CC2 |  | KER2008 | RT activity / fluorescence | IC50 | 2.04 µM
CCN1c2ncc(CCOc3ccc(CC(C)C(=O)O)c4ccccc34)cc2C(=O)N(C)c2ccc(Cl)nc21 | RT-K103N Y181C |  | nucleotide incorporation / radiometric | IC50 | 0.1–1 µM
CC(C)(C#Cc1ccc(NC(=O)CSc2nnnn2-c2cc(C3CC3)ccc2Cl)c(Cl)c1F)OCCN1CCNCC1 | RT-K103 Y181C |  | PicoGreen / fluorescence | IC50 | <1 µM
CCN1c2ncc(CCOc3ccc(NC(=O)c4ccc(Cl)nc4)cc3C)cc2C(=O)N(C)c2cccnc21 | RT-K103N Y181C | IIIB | nucleotide incorporation / radiometric | IC50 | <0.05 µM
CC(C)(C#Cc1ccc(NC(=O)CSc2nnnn2-c2cc(Br)ccc2Cl)c(Cl)c1)NC(=O)c1cc[n+]([O-])cc1 | RT-K103 Y181C |  | PicoGreen / fluorescence | IC50 | <1 µM
CCN1c2ncc(CCOc3ccc(-c4ccc(C(=O)O)cc4)cc3C)cc2C(=O)N(C)c2cccnc21 |  | IIIB | nucleotide incorporation / radiometric | IC50 | <0.05 µM
CCN1c2ncc(CCOc3ccc(C(=O)O)c4c3CCC4)cc2C(=O)N(C)c2ccc(Cl)nc21 | RT-K103N Y181C |  | nucleotide incorporation / radiometric | IC50 | <0.1 µM
CCN1c2ncc(CCOc3ccc(-c4ccc(C(=O)O)nc4)cc3C)cc2C(=O)N(C)c2cccnc21 | RT-K103N Y181C | IIIB | nucleotide incorporation / radiometric | IC50 | <0.05 µM
CC(C)(C#Cc1ccc(NC(=O)CSc2nnnn2-c2cccc(C3CC3)c2Cl)c(Cl)c1)C(=O)O | RT-K103 Y181C |  | PicoGreen / fluorescence | IC50 | <1 µM
Cc1nnc2c3ccccc3c(N3Cc4ccccc4C(C)(C)C3)nn12 |  | 98US_MSC5016 | RT activity / fluorescence | IC50 | 26.6 µM
CC(C)(C#Cc1ccc(NC(=O)CSc2nnnn2-c2ccc(C3CC3)cc2Cl)c(Cl)c1)OCCNC1CC1 | RT-K103 Y181C |  | PicoGreen / fluorescence | IC50 | <1 µM
CCN1c2ncc(CCOc3ccc(C(=O)O)c4c3CCCC4)cc2C(=O)N(C)c2ccc(Cl)nc21 | RT-V106A |  | nucleotide incorporation / radiometric | IC50 | >1 µM
CC(C)(N)C#Cc1ccc(NC(=O)CSc2nnnn2-c2cc(C(C)(C)C)cc(Br)c2Cl)c(Cl)c1 |  | WT | PicoGreen / fluorescence | IC50 | <1 µM
CCN1c2ncc(CCOc3ccc(C(=O)Nc4cccnc4C)cc3C)cc2C(=O)N(C)c2cccnc21 |  | IIIB | nucleotide incorporation / radiometric | IC50 | <0.05 µM
CC(C)(C#Cc1ccc(NC(=O)CSc2nnnn2-c2cc(C(F)(F)F)cc(Cl)c2Cl)c(Cl)c1)NC(=O)c1cc[n+]([O-])cc1 |  | WT | PicoGreen / fluorescence | IC50 | <1 µM
CCN1c2ncc(CCOc3ccc(C(C)CC(=O)O)c4ccccc34)cc2C(=O)N(C)c2cccnc21 | RT-Y188L |  | nucleotide incorporation / radiometric | IC50 | >1 µM
CC(C)(C#Cc1ccc(NC(=O)CSc2nnnn2-c2ccc(C3CC3)cc2Cl)c(Cl)c1)NC(=O)CNc1ccncc1 | RT-K103 Y181C |  | PicoGreen / fluorescence | IC50 | <1 µM
CCN1c2ncc(CCOc3ccc(-c4ccc(C(=O)O)c(F)c4)cc3C)cc2C(=O)N(C)c2cccnc21 | RT-K103N Y181C | IIIB | nucleotide incorporation / radiometric | IC50 | <0.05 µM
CC(C)(C#Cc1ccc(NC(=O)CSc2nnnn2-c2ccc(C(C)(C)C)cc2Cl)c(Cl)c1)OCC(=O)O |  | WT | PicoGreen / fluorescence | IC50 | <1 µM
CCN1c2ncc(CCOc3ccc(-c4ccc(C)[n+]([O-])c4)cc3C)cc2C(=O)N(C)c2cccnc21 | RT-K103N Y181C | IIIB | nucleotide incorporation / radiometric | IC50 | <0.05 µM

The first 3 rows once more:

SMILES,changes,strain,method,measure,value
CCN1c2ncc(CCOc3ccc(C(=O)O)c4c3CCN(C(C)=O)C4)cc2C(=O)N(C)c2cccnc21,RT-K103N Y181C,,nucleotide incorporation / radiometric,IC50,0.1–1 µM
CCN1c2ncc(CCOc3ccc(-c4ccc(CC(=O)O)c(C)c4)cc3C)cc2C(=O)N(C)c2cccnc21,RT-K103N Y181C,IIIB,nucleotide incorporation / radiometric,IC50,<0.05 µM
COC(=O)C(C)(C)C#Cc1ccc(NC(=O)CSc2nnnn2-c2cc(C(F)(F)F)ccc2Cl)c(Cl)c1,RT-K103 Y181C,,PicoGreen / fluorescence,IC50,<1 µM